A mixed list of measured activities; the numbers were collected in NIAID ChemDB.

All rows: growth or infection tests; organism: Influenza A virus

An empty or dashed field is not shown.

SMILES,strain or isolate,endpoint,cell line,tested at,result
NC12CC3CC(CC(C3)C1)C2,H2N2 A2 JAPAN/305/57,EC50,MDCK,-,45 µM
NC12CC3CC(CC(C3)C1)C2,H2N3 A/HK/7/87,EC50,MDCK cells,-,3.95 µM
CC(N)C12CC3CC(CC(C3)C1)C2,H2N2 A/Singapore/1/57,EC50,MDCK,-,0.45 µM
CC(N)C12CC3CC(CC(C3)C1)C2,H2N3 A/HK/7/87,EC50,MDCK,-,0.05 µM
CN(C)C12CC3CC(CC(C3)C1)C2,H2N2 A/Singapore/1/57,inhibition,MDCK,0.5 µg/mL,100%
N=C(N)c1ncn([C@@H]2O[C@H](CO)[C@@H](O)[C@H]2O)n1,H5N1 A/gull/PA/4175/83,EC50,MDCK,-,18 µg/mL
CC(N)C12CC3CC(CC(C3)C1)C2,H2N2 A/Singapore/1/57,EC50,MDCK,-,0.45 µM
NC12CC3CC(CC1C3)C2,H2N2 A/Singapore/1/57,inhibition,MDCK,0.8 µg/mL,100%
CN1CCC2(C1)C1CCCC2CCC1,A2 JAPAN,inhibition,Chick embryo fibroblasts,100 µM,40–70%
NC(=O)c1nc(F)c[nH]c1=O,H2N2 Kaizuka/2/65,EC50,MDCK,-,0.029 µg/mL
CNC12CC3(C)CC(C)(CC(C)(C3)C1)C2,H2N2 A/Singapore/1/57,inhibition,MDCK,10 µg/mL,100%
N#CNc1nncs1,A/ANN ARBOR,EC50,MDCK,-,0.5 µg/mL
CC1C2CC3CC(C2)CC1C3,H2N2 A/Singapore/1/57,inhibition,MDCK,0.5 µg/mL,100%
NC12CC3CC(CC(C3)C1)C2,A/Singapore/1/57,EC50,MDCK,-,3 µM
NCCC12CC3CC(CC(N)(C3)C1)C2,H2N2 A/Singapore/1/57,inhibition,MDCK,1 µg/mL,100%
C1CC2C3CC(C2C1)C1(CCNC1)C3,A2 JAPAN,inhibition,Chick embryo fibroblasts,100 µM,40–70%
CN1CCCCCC1C12CC3CC(CC(C3)C1)C2,H2N2 A2 JAPAN/305/57,EC50,MDCK,-,>39 µM
O=C(O)C(Cl)(Cl)P(=O)(O)O,A/JAPAN,EC50,-,-,320 µM
CC(=O)N[C@H]1[C@H]([C@H](O)[C@H](O)CO)OC(C(=O)O)=C[C@@H]1N,A/Singapore/1/57,EC50,MDCK,-,1.5 µM
[NH3+]CCC12CC3CC(C1)CC(c1ccccc1)(C3)C2,H2N2 A/Singapore/1/57,inhibition,MDCK,4 µg/mL,100%
CCOC(=O)C12CC3CC(CC(C3)C1)C2,H2N2 A2 JAPAN/305/57,EC50,MDCK,-,>196 µM
CN1CCC2(C1)C1CC3CC(C1)CC2C3,A2 JAPAN,inhibition,Chick embryo fibroblasts,100 µM,>70%
C1CCN(CCN2CCCCC2C23CC4CC(CC(C4)C2)C3)CC1,H2N2 A2 JAPAN/305/57,EC50,MDCK,-,>561 µM
NCCC12CC3CC(CC(C3)C1)C2,H2N2 A/Singapore/1/57,inhibition,MDCK,0.2 µg/mL,100%

3 of the rows above, restated:

SMILES	strain or isolate	endpoint	cell line	tested at	result
CN1CCCCCC1C12CC3CC(CC(C3)C1)C2	H2N2 A2 JAPAN/305/57	EC50	MDCK	-	>39 µM
CNC12CC3(C)CC(C)(CC(C)(C3)C1)C2	H2N2 A/Singapore/1/57	inhibition	MDCK	10 µg/mL	100%
CCOC(=O)C12CC3CC(CC(C3)C1)C2	H2N2 A2 JAPAN/305/57	EC50	MDCK	-	>196 µM

ECn: concentration that inhibits the pathogen or its effect by n%. Two numbers with a dash give a range or band. Rows are shuffled and stem from different studies. Percent inhibition refers to the dose given; in toxicity tests it is the harm to the cells.